Results of unrelated studies side by side (data: NIAID ChemDB).

Common to all: toxicity to cultured cells; cell line: VERO; endpoint: CC50

CCn is the concentration with n% toxicity to the cells. Conditions beyond the fields shown may differ between rows.

smiles	value
Cc1ccccc1-n1c(-c2ccc(F)cc2)cc(CN2CCSCC2)c1C	16 µg/mL
O=c1[nH]c(=O)n([C@@H]2O[C@H](CO)[C@@H](O)[C@@H]2F)cc1CO	297 µM
CCCCOc1ccc2nccc(NN)c2c1	7.77 µg/mL
Cc1cn([C@@H]2C[C@@H](F)[C@H](CO)O2)c(=O)[nH]c1=O	>100 µM
COc1ccc(/C=N/N=C(/N)NO)c(OC)c1OC.Cc1ccc(S(=O)(=O)O)cc1	50 µM
Cc1c(CN2CCN(C)CC2)cc(-c2cccc3ccccc23)n1-c1ccccc1	4 µg/mL
COc1ccc(/C=N/Nc2cc(C)nc3cc(Cl)ccc23)c2ccccc12	3.4 µg/mL
Nc1ncnc2c1ncn2C[C@H]1C[C@H]1CO	>100 µM
CCCCCCCCCCCCCC(=O)N[C@@H](C)C(=O)N1C[C@@H](O)C[C@H]1C(=O)N[C@@H](CC(C)C)C(=O)N[C@H](C(=O)N[C@@H](CCC(N)=O)C(=O)N[C@@H](CC(C)C)C(=O)OC)C(C)C	36 µM
O=c1[nH]c(=O)n([C@@H]2C[C@H](CO)C[C@H]2CO)cc1I	>200 µg/mL
Cc1ccn2c(C(=O)NCc3ccc(N4CCSCC4)c(F)c3)c(C)nc2c1	>32 µM
Cc1ccccc1NC(=O)c1c(C)n([O-])c2ccc(Cl)cc2[n+]1=O	>62.5 µg/mL
CC(=O)O[C@@H]1[C@@H](OC(C)=O)[C@H](C)O[C@@H]2Oc3c(c(=O)n(C)c(=O)n3C)S[C@@H]21	>100 µM
Nc1nc(=O)n([C@@H]2O[C@H](CO)[C@@H](O)[C@@H]2F)cc1I	21.7 µM
Cc1ccc2nc(C)c(C(=O)NCc3ccc(S(F)(F)(F)(F)F)cc3)n2c1	>32 µM
Cc1cccc(-c2cc(CN3CCN(C)CC3)c(C)n2-c2ccc(F)cc2)c1	8 µg/mL
Cc1ccn2c(C(=O)NCc3ccc(N4CCC(NCC5CC5)CC4)c(F)c3)c(C)nc2c1	>32 µM
Nc1nc2c(ncn2C[C@H]2C[C@H]2CO)c(=O)[nH]1	>100 µM
CCCCCCCCCCCCCC(=O)NC(C)(C)C(=O)N1C[C@@H](O)C[C@H]1C(=O)N[C@@H](CC(C)C)C(=O)N[C@H](C(=O)N[C@@H](CCC(N)=O)C(=O)N[C@@H](CC(C)C)C(=O)OC)C(C)C	20 µM
Cc1c(C(=O)NC(C)(C)C)[n+](=O)c2cc(Cl)c(Cl)cc2n1[O-]	>10 µg/mL
CCc1c(O)c2c(c(O)c1OC)C(=O)C(OC)CC2	11.4 µg/mL
Cc1c(CN2CCSCC2)cc(-c2ccccc2F)n1-c1cccc2ccccc12	4 µg/mL
COc1ccc(/C=N/Nc2ccnc3ccccc23)c2ccccc12	3.5 µg/mL
CCc1nc2ccc(Cl)cn2c1C(=O)NCc1ccc(N2CCCN(c3ccc(S(F)(F)(F)(F)F)cc3)CC2)cc1	>32 µM
O=C1CC[C@H](O)c2cccc(O)c21	41.84 µg/mL
COc1cc(OC)c(OC)cc1/C=N/N=C(/N)NO.Cc1ccc(S(=O)(=O)O)cc1	100 µM
O=C1CC[C@H](O)c2cc(O)cc(O)c21	24.64 µg/mL
NNc1ccnc2ccc(C3CCCCC3)cc12	10.28 µg/mL
Cc1cccc(-c2cc(CN3CCSCC3)c(C)n2-c2ccc(F)cc2)c1	4 µg/mL
CC(=O)OC[C@H]1O[C@@H]2Oc3c(c(=O)n(C)c(=O)n3C)S[C@@H]2[C@@H](OC(C)=O)[C@H]1OC(C)=O	61.7 µM
Cc1cn([C@@H]2O[C@H](CO)[C@@H](O)[C@@H]2F)c(=O)[nH]c1=O	7.9 µM
CCCCCCCCCCCCCCCC(=O)NC(C)(C)C(=O)N1C[C@@H](O)C[C@H]1C(=O)N[C@@H](CC(C)C)C(=O)N[C@H](C(=O)N[C@@H](CCC(N)=O)C(=O)N[C@@H](CC(C)C)C(=O)OC)C(C)C	21 µM
CC1=C(CCO)C(=O)C(O)=C2C1=CC(=O)[C@@H]1C(C)(C)CCC[C@@]21C	12.7 µg/mL
Nc1nc2c(ncn2CC[C@@H](CO)OCP(=O)(O)O)c(=O)[nH]1	>100 µg/mL
Cc1c(CN2CCN(C)CC2)cc(-c2ccccc2)n1-c1ccccc1Cl	4 µg/mL
CO[C@H]1CC(=O)c2c(O)cccc2[C@H]1O	26.59 µg/mL
Cn1c2c(c(=O)n(C)c1=O)S[C@H]1[C@@H](O2)O[C@H](CO)[C@@H](O)[C@@H]1O	>100 µM
Nc1ncnc2c1ncn2CC[C@@H](CO)OCP(=O)(O)O	>100 µg/mL
O=c1ccn([C@@H]2O[C@H](CO)[C@@H](O)[C@@H]2F)c(=O)[nH]1	2.9 µM
CCCCCCCCCCCCCCCCCC(=O)NC(C)(C)C(=O)N1C[C@@H](O)C[C@H]1C(=O)N[C@@H](CC(C)C)C(=O)N[C@H](C(=O)N[C@@H](CCC(N)=O)C(=O)N[C@@H](CC(C)C)C(=O)OC)C(C)C	25 µM
Cc1ccc2nc(C)c(C(=O)NCc3ccc4c(c3)CCO4)n2c1	>32 µM
O=c1[nH]c(=O)n([C@@H]2C[C@@H](F)[C@H](CO)O2)cc1Cl	>100 µM
Cc1c(CN2CCN(C)CC2)cc(-c2ccccc2)n1-c1cccc2ccccc12	2 µg/mL
O=c1[nH]c(=O)n(C2C[C@H](CO)[C@@H](CO)C2)cc1I	>200 µg/mL
COC(=O)[C@H](CC(C)C)NC(=O)[C@H](CCC(N)=O)NC(=O)[C@@H](NC(=O)[C@H](CC(C)C)NC(=O)[C@@H]1C[C@H](O)CN1C(=O)C(C)(C)NC(=O)CCCCCCCCCCCCCCCO)C(C)C	>43 µM
OC[C@H]1CC(n2cnc3c(NC4CC4)ncnc32)C[C@@H]1CO	>200 µg/mL
Cc1cn(C[C@H]2C[C@H]2CO)c(=O)[nH]c1=O	>100 µM

Repeating the first 3 entries:

{"smiles": "Cc1ccccc1-n1c(-c2ccc(F)cc2)cc(CN2CCSCC2)c1C", "value": "16 µg/mL"}
{"smiles": "O=c1[nH]c(=O)n([C@@H]2O[C@H](CO)[C@@H](O)[C@@H]2F)cc1CO", "value": "297 µM"}
{"smiles": "CCCCOc1ccc2nccc(NN)c2c1", "value": "7.77 µg/mL"}